Compound potency records, mixed from different reports. Data source: NIAID ChemDB in PubChem.

Shared fields: whole-cell or culture tests; species: Mycobacterium tuberculosis

MIC bound: limit read from a one-dose screen.

compound	changes	method	cells	tested at	endpoint	strain or isolate	value
Cn1c(=O)c2nc3c(nc2n(C)c1=O)c(=O)n(C)c(=O)n3C		BACTEC			MIC bound	H37Rv	>12.5 µg/mL
Cc1cccc(NC(=O)c2cnccn2)c1Br					MIC	H37Rv	2 µg/mL
COc1cccc2c1C(=O)OC2C					MIC	H2	1000 µg/mL
O=C(O)c1cnccn1				50 µg/mL	inhibition	H37Ra	60%
CC(=O)/C(N=Nc1ccc(C(=O)N/N=C/c2ccc(F)cc2)cc1)=C(\C)O					MIC	H37Rv	>12.5 µg/mL
Ic1cn[nH]c1		resazurin			MIC90	H37Rv	>250 µg/mL
CO[C@H]1/C=C/O[C@@]2(C)Oc3c(C)c(O)c4c(O)c(c(/C=N/N5CCN(C)CC5)c(O)c4c3C2=O)NC(=O)/C(C)=C\C=C\[C@H](C)[C@H](O)[C@@H](C)[C@@H](O)[C@@H](C)[C@H](OC(C)=O)[C@@H]1C		visual reading			MIC		0.1 µg/mL
O=C(NN1C(=O)CSC1c1ccc(O)cc1)c1cc(-c2ccc(Cl)cc2)n[nH]1		broth dilution			MIC	H37Rv	0.6 µg/mL
O=C1NC(NNC(=O)c2ccncc2)=N/C1=C\c1c(Cl)cccc1Cl		resazurin			MIC	H37Rv	>12.5 µg/mL
Nc1nnc2nc(C3(c4nc5nnc(N)n5[nH]c4=O)CCCC3=O)c(=O)[nH]n12		BACTEC			MIC bound	H37Rv	>12.5 µg/mL
CC(=O)/C(N=Nc1ccc(C(=O)N/N=C/c2ccncc2)cc1)=C(\C)O				12.5 µg/mL	inhibition	H37Rv	16%
CCCCc1nc2ccc(Cl)cc2c2nc3ccccc3n12		resazurin			MIC99	H37Rv	25 µg/mL
O=C(CC1Sc2ccccc2NC1=O)NNc1ccc(Cl)c(Cl)c1		BACTEC			MIC	H37Rv	≥12.5 µg/mL
CC1OC(=O)c2ccccc21					MIC	H2	1000 µg/mL
O=c1[nH]c2ccc(Cl)cc2c(-c2ccccc2)c1-[n+]1ccccc1					EC50	H37Rv	>6.25 µg/mL
CC1(C)CCc2c(c3ccccc3c3nc(-c4ccc(C#N)cc4)oc23)O1		resazurin			MIC	ATCC 35822	8.8 µg/mL
CC(=O)/C(N=Nc1ccc(C(=O)N/N=C/c2ccccc2F)cc1)=C(\C)O					MIC	H37Rv	>12.5 µg/mL
CCN1CC(c2ccccc2)NC(C#N)=C1C#N		broth dilution / visual reading			MIC	H37Rv	1.5 µg/mL
Fc1ccc2ncn3c4ccccc4nc3c2c1		resazurin			MIC99	H37Rv	6.25 µg/mL
O=C(NN1C(=O)[C@H](Cl)[C@H]1c1ccccc1[N+](=O)[O-])c1cc(-c2ccc(Cl)cc2)n[nH]1		broth dilution			MIC	H37Rv	>5 µg/mL
O=C1NC(NNC(=O)c2ccncc2)=N/C1=C\c1ccccc1Cl		resazurin	VERO	12.5 µg/mL	inhibition	H37Rv	99%
CC(=O)/C(N=Nc1ccc(C(=O)N/N=C/c2ccc(N(C)C)cc2)cc1)=C(\C)O				12.5 µg/mL	inhibition	H37Rv	25%
CC1OC(=O)c2cc(N)ccc21					MIC	H37Rv	30 µg/mL
CNC(=S)SC1=NS(=O)(=O)c2ccccc2N1		BACTEC			MIC	H37Rv	16 µg/mL
CO[C@H]1/C=C/O[C@@]2(C)Oc3c(C)c(O)c4c(O)c(c(/C=N/N5CCN(C/C=C/c6ccccc6)CC5)c(O)c4c3C2=O)NC(=O)/C(C)=C\C=C\[C@H](C)[C@H](O)[C@@H](C)[C@@H](O)[C@@H](C)[C@H](OC(C)=O)[C@@H]1C					MIC	2237 (RIF-S)	0.015 µg/mL
Nc1c(-c2ccccc2)c2cc([N+](=O)[O-])ccc2[nH]c1=O					MIC	H37Rv	>6.25 µg/mL
COC(=O)c1cnc2nc(N3CCOCC3)[nH]n2c1=O		resazurin		6.25 µg/mL	inhibition	H37Rv	7%
CCN1CC(c2ccsc2)NC(C#N)=C1C#N		broth dilution / visual reading			MIC	H37Rv	12.5 µg/mL
CC1NCc2cc(-c3ccc4c(=O)c(C(=O)O)cn(C5CC5)c4c3OC(F)F)ccc21					MIC	M-4	0.0625 µg/mL
CN1CCN(Cc2ccc(NC(=O)c3ccc(-c4ccccc4)cc3)cc2)CC1					MIC	103471	>16 µg/mL
CC1C=CC(C)N(C(N)=O)N1C(N)=O		BACTEC			MIC bound	H37Rv	>12.5 µg/mL
Nc1c(-c2ccccc2)c2cc(Cl)ccc2[nH]c1=O				6.25 µg/mL	inhibition	H37Rv	0%
NC(=O)c1cnccn1		resazurin			MIC99	H37Rv	6.25 µg/mL
CC1(C)CCc2c(c3ccccc3c3nc(-c4cccc(C#N)c4)oc23)O1		resazurin			MIC	ATCC 35338	17.6 µg/mL
O=C(/C=C/c1ccccc1)Nc1ccccc1Cn1ccnc1					MIC	103471	>16 µg/mL
CCCc1nc2ccc(C)cc2c2nc3ccccc3n12		resazurin			MIC99	H37Rv	0.4 µg/mL
Cn1c(=O)c(N)c(-c2ccccc2)c2cc(Cl)ccc21				6.25 µg/mL	inhibition	H37Rv	5%
CN(C)/N=N/c1[nH]cnc1C(N)=O.[Cl][Cu][Cl]		BACTEC	VERO		MIC	H37Rv	3.13 µg/mL
CC1OC(=O)c2c(O)cccc21					MIC	H2	300 µg/mL
COc1ccc2c(c1)[n+](=O)c(C(=O)NCc1ccc(C(F)(F)F)cc1)c(C)n2[O-]		resazurin			EC90	H37Rv	>100 µg/mL
COc1cccc2c1C(=O)c1c(O)c3c(c(O)c1C2=O)C[C@@](O)(/C(C)=N/NC(N)=O)CC3OC1CC(N)C(O)C(C)O1.Cl					MIC	RMP-R	12.5 µg/mL
COc1cc(/C=N/NC(=O)c2ccc(N)cc2)ccc1O					EC50	H37Rv	>12.5 µg/mL
CC(C)(C)c1ncc(C(=O)Nc2ccc(C(F)(F)F)cc2)nc1Cl					MIC	H37Rv	8 µg/mL
CCN1C(C#N)=C(C#N)N=C(c2cccs2)[C@@H]1/C=C/c1ccccc1		broth dilution / visual reading			MIC	H37Rv	12.5 µg/mL
CC(C)=Nc1c(-c2ccccc2)c2cc(Cl)ccc2[nH]c1=O				6.25 µg/mL	inhibition	H37Rv	0%
CCN1C(C#N)=C(C#N)N=C(c2ccccc2)C1/C=C/c1ccc(-c2ccccc2)cc1		broth dilution / visual reading			MIC	H37Rv	12.5 µg/mL
O=C(Nc1ccccc1CN1CCOCC1)c1ccc(Cl)cc1					MIC	103471	>16 µg/mL
CCOc1c(N=Nc2ccccc2OC)c(-c2ccccc2)nn1C(=S)S		BACTEC			MIC bound	H37Rv	>12.5 µg/mL
CC(=O)/C(N=Nc1ccc(C(=O)N/N=C/c2ccc([N+](=O)[O-])o2)cc1)=C(\C)O					EC50	H37Rv	<12.5 µg/mL
O=C(NCc1ccccc1)c1c(-c2ccccc2)[n+](=O)c2ccc(C(F)(F)F)cc2n1[O-]		resazurin			EC90	H37Rv	>100 µg/mL
Cc1c(-[n+]2ccccc2)c(=O)[nH]c2ccccc12					EC50	H37Rv	>6.25 µg/mL
N#Cc1c(N)[n+]([O-])c2cc(C(F)(F)F)ccc2[n+]1[O-]		resazurin			MIC	H37Rv (ATCC 27294)	39 µM
Clc1ccc2c(c1)nc1cc(Nc3ccccc3)c(=NC3CCCCC3)cc-1n2-c1ccccc1					MIC	H37Rv	3.3 µg/mL
NNC(=O)c1ccncc1	INH resistant	resazurin			MIC99	H37Rv	0.72 µg/mL
O=C1NC(=Nc2ccc(Cl)cc2Cl)N/C1=C\c1ccc(Cl)cc1Cl			VERO	12.5 µg/mL	inhibition	H37Rv	96%
Brc1ccc2ncn3c4ccccc4nc3c2c1	INH resistant	resazurin			MIC99	H37Rv	12.5 µg/mL
COc1cc2c(cc1Cl)[n+]([O-])c(N)c(C#N)[n+]2[O-]		resazurin			MIC	H37Rv (ATCC 27294)	312.5 µM
O=c1[nH]c2cc([N+](=O)[O-])ccc2nc1/C=C(/O)c1ccco1		resazurin		6.25 µg/mL	inhibition	H37Rv	0%
CO[C@H]1/C=C/O[C@@]2(C)Oc3c(C)c(O)c4c(O)c(c(/C=N/N5CCN(C)CC5)c(O)c4c3C2=O)NC(=O)/C(C)=C\C=C\[C@H](C)[C@H](O)[C@@H](C)[C@@H](O)[C@@H](C)[C@H](OC(C)=O)[C@@H]1C					MIC90	22 isolates (rifampicin isoniazid-susceptible)	≤0.03 µg/mL
Cc1ccc(NC(=O)c2cncc(Cl)n2)cc1I					MIC	H37Rv	8 µg/mL
NNC(=O)c1ccncc1		luminescence		0.46 µM	inhibition	H37Rv	90%
Ic1cn[nH]c1.[Cl][Pd][Cl].c1ccc(P(c2ccccc2)c2ccccc2)cc1		resazurin			MIC90	H37Rv	7.61 µM
NNC(=O)c1ccncc1					MIC50	22 isolates (rifampicin isoniazid-susceptible)	0.06 µg/mL
CC1(C)CCc2c(c3ccccc3c3[nH]c(-c4ccc(F)cc4)nc23)O1		resazurin			MIC	ATCC 35822	17.2 µM
Nc1ccc(C(=O)N/N=C/c2ccc(O)cc2)cc1				12.5 µg/mL	inhibition	H37Rv	21%
COC1=C[C@@H]2C3=C([C@@H]2C1=O)[C@@H](NC(C)=O)CCc1cc(OC)c(OC)c(OC)c13		BACTEC			MIC bound	H37Rv	>12.8 µg/mL
O=C(Nc1cccc(CN2CCOCC2)c1)c1ccc(Cl)cc1					MIC	103471	8 µg/mL
O=C(Nc1ccc(C(F)(F)F)cc1)c1cnccn1					MIC	H37Rv	2 µg/mL
CCCCNC(=O)c1cc2c(cc1Cl)Sc1nccn1S2(=O)=O		resazurin			MIC bound	H37Rv	>6.25 µg/mL
O=C1NC(NNC(=O)c2ccncc2)=N/C1=C\c1ccc(Cl)cc1		resazurin	VERO	12.5 µg/mL	inhibition	H37Rv	99%
Cc1c2oc3c(C)ccc(C(=O)OCCN4CCN(c5ccccc5)CC4)c3nc-2c(C(=O)OCCN2CCN(c3ccccc3)CC2)c(N)c1=O		BACTEC			MIC bound	H37Rv	>12.5 µg/mL
CCCCc1nc2ccccc2c2nc3ccccc3n12		resazurin			MIC99	H37Rv	>25 µg/mL
O=C1N(c2nncs2)CCN1[N+](=O)[O-]					MIC	PAS-R	3.1 µg/mL
Cc1ccc([N+](=O)[O-])cc1NC(=O)Nc1cccc(Cl)c1		broth dilution / turbidity			MIC90		0.2 µg/mL
Cn1c(=O)c2c(nc3n(Cc4ccccc4)c(=O)c(NCCBr)cn23)n(C)c1=O		resazurin		6.25 µg/mL	inhibition	H37Rv	-4%
Nc1ccc(C(=O)N/N=C/c2ccncc2)cc1					MIC	H37Rv	>12.5 µg/mL
Cc1nc(N)sc1N=Nc1ccc(Cl)cc1		BACTEC		12.5 µg/mL	inhibition	H37Rv	0%
Nc1ccc(C(=O)N/N=C/c2ccc([N+](=O)[O-])cc2)cc1					EC50	H37Rv	>12.5 µg/mL
COC(=O)CC(NC(=O)OCc1ccccc1)C(=O)NC(CO)C(=O)NCC(=O)Oc1ccc([N+](=O)[O-])cc1		BACTEC			MIC	H37Rv	≥12.8 µg/mL
O=[N+]([O-])c1cn[nH]c1		resazurin			MIC90	H37Rv	>250 µg/mL
CCCNC(=O)OCC1=C(COC(=O)NCCC)C2OC1C(C(=O)OC)=C2C(=O)OC		BACTEC			MIC bound	H37Rv	>12.5 µg/mL
C[C@H](O)[C@H]1C(=O)N2C(C(=O)O)=C(S[C@@H]3CN[C@H](C(=O)N(C)C)C3)[C@H](C)[C@H]12					MIC		0.83 µM
COC(=O)c1c(/C(=N\Nc2ccc([N+](=O)[O-])cc2)[N+](=O)[O-])ssc1=N		BACTEC			MIC	H37Rv	≥12.5 µg/mL
O=C(NN1C(=O)CSC1c1ccccc1O)c1cc(-c2ccc(Cl)cc2)n[nH]1		broth dilution			MIC	H37Rv	0.35 µg/mL
COc1cc(O)c(C(C)c2ccccc2)cc1N=O		BACTEC			MIC bound	H37Rv	>12.5 µg/mL
CCCc1nc2ccc(Br)cc2c2nc3ccccc3n12	INH resistant	resazurin			MIC99	H37Rv	>25 µg/mL

For reference, 12 entries again:

compound | changes | method | cells | tested at | endpoint | strain or isolate | value
COC(=O)c1cnc2nc(N3CCOCC3)[nH]n2c1=O |  | resazurin |  | 6.25 µg/mL | inhibition | H37Rv | 7%
O=c1[nH]c2cc([N+](=O)[O-])ccc2nc1/C=C(/O)c1ccco1 |  | resazurin |  | 6.25 µg/mL | inhibition | H37Rv | 0%
Ic1cn[nH]c1 |  | resazurin |  |  | MIC90 | H37Rv | >250 µg/mL
NNC(=O)c1ccncc1 |  |  |  |  | MIC50 | 22 isolates (rifampicin isoniazid-susceptible) | 0.06 µg/mL
CN(C)/N=N/c1[nH]cnc1C(N)=O.[Cl][Cu][Cl] |  | BACTEC | VERO |  | MIC | H37Rv | 3.13 µg/mL
O=C(Nc1ccc(C(F)(F)F)cc1)c1cnccn1 |  |  |  |  | MIC | H37Rv | 2 µg/mL
O=C(NN1C(=O)CSC1c1ccc(O)cc1)c1cc(-c2ccc(Cl)cc2)n[nH]1 |  | broth dilution |  |  | MIC | H37Rv | 0.6 µg/mL
COc1cccc2c1C(=O)OC2C |  |  |  |  | MIC | H2 | 1000 µg/mL
C[C@H](O)[C@H]1C(=O)N2C(C(=O)O)=C(S[C@@H]3CN[C@H](C(=O)N(C)C)C3)[C@H](C)[C@H]12 |  |  |  |  | MIC |  | 0.83 µM
COc1cc(O)c(C(C)c2ccccc2)cc1N=O |  | BACTEC |  |  | MIC bound | H37Rv | >12.5 µg/mL
CCOc1c(N=Nc2ccccc2OC)c(-c2ccccc2)nn1C(=S)S |  | BACTEC |  |  | MIC bound | H37Rv | >12.5 µg/mL
CCN1C(C#N)=C(C#N)N=C(c2ccccc2)C1/C=C/c1ccc(-c2ccccc2)cc1 |  | broth dilution / visual reading |  |  | MIC | H37Rv | 12.5 µg/mL

Percent inhibition refers to the dose given; in toxicity tests it is the harm to the cells. An empty or dashed field is not shown. ECn is the concentration giving n% inhibition of infection, replication or growth. A number after MIC or MFC names an inhibition level or a share of isolates. Neighbouring rows are from separate reports.